A mixed list of measured activities; the numbers were collected in NIAID ChemDB.

Shared fields: growth or infection tests; agent: Mycobacterium tuberculosis

An empty or dashed field is not shown. a–b is a range or a potency band. Inhibition is in % at the dose shown (toxicity tests: loss of growth or viability). Neighbouring rows are from separate reports. A number after MIC or MFC names an inhibition level or a share of isolates. MIC bound comes from a single tested concentration.

SMILES	read by	read-out	strain	conditions	tested at	value
CCCCCCCCCCCNCCNCCC(c1ccccc1)c1ccccc1		MIC				12.5 µM
O=C(CNC(=O)c1ccccc1)SCC1CS1		MIC	H37Rv			>50 µg/mL
O=C(Nc1ccc(Cl)c(Cl)c1)c1ccccc1O		MIC	CNCTC MY 331/8			28 µM
O=C(O)c1ccc(/C=[N+]2\C(=O)Nc3ccc(F)cc32)cc1O	resazurin	MIC90	H37Rv			<6.25 µg/mL
N[C@@H]1CONC1=O		MIC	Streptomycin-resistant			<10 µg/mL
CCSCC(=O)SCC1CS1		MIC	H37Rv			6.25 µg/mL
S=c1[nH]c2ccccc2c(=S)n1-c1ccc(Br)cc1		MIC	331/81			16 µM
COc1cc(CCNCCNC[C@]2(C)CCC[C@]3(C)c4ccc(C(C)C)cc4CC[C@@H]23)ccc1O		MIC				12.5 µM
COc1ccc2c(c1)[n+]([O-])c(/C(C)=N/NC(=O)CC#N)c[n+]2[O-]	BACTEC	MIC bound	H37Rv			≤12.5 µg/mL
O=C(O)c1ccc(NC(C(=O)c2ccc(F)cc2)N2CCCCC2)cc1O	resazurin	MIC90	H37Rv			<6.25 µg/mL
O=C(O)c1cccc2c1Oc1c(cccc1C(=O)O)S2	BACTEC	MIC bound	H37Rv			>12.5 µg/mL
Fc1ccc2oc(=S)n(-c3ccc(Br)cc3)c(=S)c2c1		MIC	My 331/88	14 d		1 µM
CCOC(=O)C1=C(Nc2ccc(F)cc2)C(=O)N(CC)C1	BACTEC	MIC	H37Rv			≥12.8 µg/mL
O=C(NCc1cccc([N+](=O)[O-])c1)c1ncccc1O		MIC	CNCTC MY 331/8			250 µM
CC12C[C@H]3OC(=O)[C@@H]1COC14OC5([C@H]2C1=O)[C@@](O)(CC[C@H]1[C@H]4CC=C2CC=CC(=O)[C@@]21C)C(=O)O[C@@]35C		MIC				>128 µg/mL
Cc1ccc(C2CC(c3ccc([N+](=O)[O-])cc3)C3=C(O2)C(=O)c2ccccc2C3=O)cc1		MIC	H37Rv			>100 µg/mL
COc1ccc2oc(=S)n(-c3cccc(F)c3)c(=S)c2c1		MIC	My 331/88	14 d		62.5 µM
CC1=CC[C@]2(C)CC[C@]3(C=O)[C@@H](C(C)C)CC[C@H]3[C@@H]2C=C1	visual reading / absorbance	MIC	H37Rv			10.9 µM
O=c1oc2ccc(Br)cc2c(=S)n1-c1ccccc1		MIC	My 331/88	14 d		0.5 µM
C=CC(C)(C)c1c2c(c(O)c3ccc(=O)oc13)C=CC(C)(C)O2		MIC				50 µg/mL
CC(=O)OCC1=C(C(=O)O)N2C(=O)[C@@H](NC(=O)CSc3ccncc3)[C@H]2SC1	BACTEC	inhibition	H37Rv		12.5 µg/mL	22%
CCCCCCCCCCCNCCNCCF		MIC				25 µM
O=S1(=O)CCCCS1	BACTEC	MIC bound	H37Rv			>12.5 µg/mL
O=C1C(=O)c2ccccc2C2=C1CCC(c1ccc(F)cc1)O2		MIC	H37Rv			2.5 µg/mL
O=C1O[C@H]2C(O)O[C@@H]3COC(=O)c4cc(O)c(O)c(O)c4-c4c(O)cc5oc(=O)c6c(c(O)c(O)c7oc(=O)c4c5c76)-c4c(cc(O)c(O)c4O)C(=O)OC3[C@@H]2OC(=O)c2cc(O)c(O)c(O)c2-c2c1cc(O)c(O)c2O		MIC				0.6 µg/mL
c1ccc(CSc2nnc3c4ccccc4c4ccccc4c3n2)cc1		MIC99	H37Rv			162.5 µg/mL
CO[C@H]1/C=C/O[C@@]2(C)Oc3c(C)c(O)c4c(O)c(c(C=Nc5ccc(C(=O)O)c(O)c5)c(O)c4c3C2=O)NC(=O)/C(C)=C\C=C\[C@H](C)[C@H](O)[C@@H](C)[C@@H](O)[C@@H](C)[C@H](OC(C)=O)[C@@H]1C		MIC	H37Rv			>50 µg/mL
O=C(Nc1ccc(Br)cc1)c1ncccc1S		MIC	CNCTC MY 331/8			62.5 µM
CCN(CC)c1nc(Cl)nc(Nc2ccc3cc(-c4ccccc4)c(=O)oc3c2)n1		MIC	H37Rv			125 µg/mL
c1ccc(CCc2nc3cc4ccccc4cc3[nH]2)cc1	broth dilution	MIC	Isolate 192			>100 µg/mL
CC(=O)OCC(S)CS		MIC	H37Rv			3.126–6.25 µg/mL
O=C1C2=C(OC(c3ccc(Cl)cc3)CC2)C(=O)c2ccccc21		MIC	H37Rv			>100 µg/mL
COc1ccc(NC(=O)c2ncccc2S)cc1		MIC	CNCTC MY 331/8			16 µM
Cc1c(N2CCN(C(=O)c3ccco3)CC2)c([N+](=O)[O-])cc2c(=O)c(C(=O)O)cn(C(C)(C)C)c12		MIC	H37Rv			25.91 µM
c1ccc(CNCCNCc2ccco2)cc1		MIC				50 µM
O=C(Nc1cccc(Cl)c1)c1ncccc1S		MIC	CNCTC MY 331/8			32 µM
Cc1cc(O)c(C(C)C)cc1N=Cc1cc([N+](=O)[O-])ccc1O		MIC99	H37Rv			6 µg/mL
COC(=O)/N=N/C(=O)OC	BACTEC	inhibition	H37Rv		12.5 µg/mL	0%
Cc1c(N2CCC(n3c(=O)[nH]c4cc(Cl)ccc43)CC2)c([N+](=O)[O-])cc2c(=O)c(C(=O)O)cn(C(C)(C)C)c12		MIC	H37Rv			>22.56 µM
O=C(OCC(S)CS)c1ccc(Cl)cc1Cl		MIC	H37Rv			25–50 µg/mL
COc1ccc(NC(=O)c2ncccc2O)cc1		MIC	CNCTC MY 331/8			125 µM
Cn1c(=O)nc2n(-c3ccc(Br)cc3)c3ccccc3nc-2c1=O	BACTEC	inhibition	H37Rv		12.5 µg/mL	62%
CCOc1ccc(N=Cc2c3c(O)c4c(O)c(C)c5c(c4c2O)C(=O)[C@@](C)(O/C=C/[C@H](OC)[C@@H](C)[C@@H](OC(C)=O)[C@H](C)[C@H](O)[C@H](C)[C@@H](O)[C@@H](C)/C=C/C=C(/C)C(=O)N3)O5)cc1		MIC	H37Rv			>50 µg/mL
Nc1nc2nc3c(nc2c(=O)[nH]1)CN(c1ccc(C(=O)NC(CCC(=O)O)C(=O)O)cc1)C3=O	BACTEC	MIC bound	H37Rv			>12.8 µg/mL
O=c1oc2ccc(F)cc2c(=S)n1-c1cccc(F)c1		MIC	My 331/88	21 d		16 µM
Cc1cc(NCC(=O)NN)ccc1Cl	BACTEC	inhibition	H37Rv		12.5 µg/mL	7%
O=C(NCc1ccc(C(F)(F)F)cc1)c1ncccc1O		MIC	CNCTC MY 331/8			125 µM
O=C1C(=O)c2ccccc2C2=C1CCC(c1ccc(Cl)cc1)O2		MIC	H37Rv			2.5 µg/mL
O=C1Nc2ccc(F)cc2C1=O	resazurin	MIC90	H37Rv			<6.25 µg/mL
O=C1C2=C(OC(c3ccc(Br)cc3)CC2)C(=O)c2ccccc21		MIC	H37Rv			>100 µg/mL
C[C@@H]1[C@H]2C[C@@H](C[C@H]1NCCNCCc1cccc(F)c1)C2(C)C		MIC				50 µM
NC(=O)c1cnccn1	broth dilution	MIC	Isolate 192			>400 µg/mL
COC(=O)[C@]1([C@]2(C)CCC(=O)O2)CC(=O)c2c(cc3c(c2O)C2C=CC4(C3)C(=O)c3cc(C)cc(O)c3C(=O)[C@@]4(O)C2=O)O1		MIC				216.6 µg/mL
Cc1c(N2CCN(C)C(c3ccccc3)C2)c([N+](=O)[O-])cc2c(=O)c(C(=O)O)cn(-c3ccc(F)cc3F)c12		MIC	H37Rv			>23.39 µM
Oc1cc2c3c(c1)c1cc4c(cc1c[n+]3CC2)OCO4.[Cl-]	BACTEC	MIC bound	H37Rv			>12.5 µg/mL
O=[N+]([O-])c1cc(Cl)cc2[nH]c(/C=C/c3ccccc3)nc12	broth dilution	MIC	Isolate 192			>100 µg/mL
CC1=CC[C@]2(C)CC[C@]3(C(=O)O)[C@@H](C(C)C)CC[C@H]3[C@@H]2C=C1	visual reading / absorbance	MIC	H37Rv			165.3 µM
O=C(Nc1ccc(F)cc1)c1ncccc1O		MIC	CNCTC MY 331/8			128 µM
Nc1c(NC(=O)/C=C/c2ccccc2)cc(Cl)cc1[N+](=O)[O-]	broth dilution	MIC	H37Rv			>100 µg/mL
Cc1ccc2oc(=S)n(-c3ccccc3)c(=S)c2c1		MIC	My 331/88	21 d		1 µM
CC(=O)SC(C)C1CS1		MIC	H37Rv			25–50 µg/mL
COc1ccc(CCNCCNC[C@]2(C)CCC[C@]3(C)c4ccc(C(C)C)cc4CC[C@@H]23)cc1OC		MIC				6.25 µM
CCOC(=O)CN1CCN(CC(=O)NC(c2ccccc2)c2ccc(Cl)cc2)CC1	BACTEC	MIC bound	H37Rv			>12.8 µg/mL
CC(C)[C@H]1CC[C@H]2[C@@H]3C=C[C@]4(C)CC[C@@]3(CC[C@]12C(=O)O)CO4	visual reading / absorbance	MIC	H37Rv			314 µM
C/C=C/C=C/C=C/C(O)C(C)C(CCC(C)C1OC(=O)C=CC1C)OP(=O)([O-])O.[Na+]	BACTEC	inhibition	H37Rv		12.5 µg/mL	14%
CCCCC(CC)CN1CN(CC(CC)CCCC)CC(C)(NCCNCCC)C1		MIC				6.25 µM
COc1ccc(C(=O)OCC(S)CS)cc1		MIC	H37Rv			25 µg/mL
C=CC(C)(C)c1c2c(c(O)c3ccc(=O)oc13)C(=O)CC(C)(C)O2		MIC				100 µg/mL
Cc1ccc(-n2c(=S)oc3c(Cl)cc(Cl)cc3c2=S)cc1		MIC	331/81			16 µM
O=C(O)c1oc2ccccc2c1C=C(c1ccccc1)c1ccccc1	BACTEC	inhibition	H37Rv		12.5 µg/mL	8%
S=c1oc2c(Cl)cc(Cl)cc2c(=S)n1-c1ccc(Cl)cc1		MIC	331/81			8 µM
COc1cc2c(cc1OC)CN(c1c([N+](=O)[O-])cc3c(=O)c(C(=O)O)cn(C(C)(C)C)c3c1C)CC2		MIC	H37Rv			25.23 µM
NNC(=O)N/N=C1\C(=O)N(c2ccc(Cl)c(Cl)c2)C(=O)C(=O)C1c1nc2ccccc2s1	resazurin	MIC bound	H37Rv			>6.25 µg/mL
CCCCC(CC)CN1CN(CC(CC)CCCC)CC(C)(NCCNCc2cccc(C)c2)C1		MIC				6.25 µM
O=C(Nc1ccc(C(=O)O)c(OC(=O)c2ccc(F)cc2)c1)c1ccc(F)cc1	resazurin	MIC90	H37Rv			<6.25 µg/mL
Cc1ccc(C2CCC3=C(O2)C(=O)c2ccccc2C3=O)cc1		MIC	H37Rv			>100 µg/mL
CCCCCCCCCCCNCCNCCc1ccc(O)cc1		MIC				25 µM
S=c1[nH]c2ccccc2c(=S)n1-c1ccccc1		MIC	331/81			32 µM
CC1=CC[C@]2(C)CC[C@]3(CO)[C@@H](C(C)C)CC[C@H]3[C@@H]2C=C1	visual reading / absorbance	MIC	H37Rv			5.4 µM
S=c1[nH]c2ccccc2c(=S)n1-c1ccc(Cl)cc1		MIC	331/81			64 µM
CCN1C[C@]2(CO)CC[C@H](OC)[C@]34C5CC6[C@H](OC)C5[C@](O)(C[C@@H]6OC)[C@@](O)(C13)[C@@H](OC)[C@H]24	BACTEC	MIC	H37Rv			≥12.5 µg/mL
Fc1ccc(-n2c(=S)oc3ccc(Br)cc3c2=S)cc1		MIC	My 331/88	21 d		2 µM
Oc1c2ccccc2c(O)c2nc3ccccc3nc12	BACTEC	inhibition	H37Rv		12.5 µg/mL	97%
O=C1OC(c2ccccc2)=N/C1=C\c1ccc(F)cc1	resazurin	MIC90	H37Rv			<6.25 µg/mL
CC1C(O)CC23COC(=O)C2=CCCC3C1(C)CCC1=CC(=O)OC1	BACTEC	MIC	H37Rv			≥12.5 µg/mL
CC1[C@@H](CO)O[C@@H](O[C@H](CCCCCCCCCC(=O)CCCCCCCCCCCC[C@@H](O)[C@@H](C)N)[C@@H](N)CO)[C@H](O)[C@H]1O		MIC				10 µg/mL
CC(=O)OC1C(=O)C=C(C)OC1=O	resazurin	inhibition	H37Rv		6.25 µg/mL	-48%
O=C(O)c1ccc(N2C(=O)/C(=C/c3ccc(F)cc3)N=C2c2ccccc2)cc1O	resazurin	MIC90	H37Rv			<6.25 µg/mL
CCCCCCCCCCCCSC(N)=S	resazurin	MIC bound	H37Rv			<6.25 µg/mL
O=c1oc2ccc(Br)cc2c(=S)n1-c1ccc(Br)cc1		MIC	My 331/88	21 d		2 µM

12 of the rows above, restated:

SMILES | read by | read-out | strain | conditions | tested at | value
Fc1ccc2oc(=S)n(-c3ccc(Br)cc3)c(=S)c2c1 |  | MIC | My 331/88 | 14 d |  | 1 µM
Oc1c2ccccc2c(O)c2nc3ccccc3nc12 | BACTEC | inhibition | H37Rv |  | 12.5 µg/mL | 97%
S=c1oc2c(Cl)cc(Cl)cc2c(=S)n1-c1ccc(Cl)cc1 |  | MIC | 331/81 |  |  | 8 µM
O=c1oc2ccc(Br)cc2c(=S)n1-c1ccc(Br)cc1 |  | MIC | My 331/88 | 21 d |  | 2 µM
O=C(Nc1ccc(C(=O)O)c(OC(=O)c2ccc(F)cc2)c1)c1ccc(F)cc1 | resazurin | MIC90 | H37Rv |  |  | <6.25 µg/mL
O=C(O)c1ccc(N2C(=O)/C(=C/c3ccc(F)cc3)N=C2c2ccccc2)cc1O | resazurin | MIC90 | H37Rv |  |  | <6.25 µg/mL
Cc1cc(NCC(=O)NN)ccc1Cl | BACTEC | inhibition | H37Rv |  | 12.5 µg/mL | 7%
COc1ccc2c(c1)[n+]([O-])c(/C(C)=N/NC(=O)CC#N)c[n+]2[O-] | BACTEC | MIC bound | H37Rv |  |  | ≤12.5 µg/mL
CCCCC(CC)CN1CN(CC(CC)CCCC)CC(C)(NCCNCCC)C1 |  | MIC |  |  |  | 6.25 µM
CCCCCCCCCCCNCCNCCF |  | MIC |  |  |  | 25 µM
Fc1ccc(-n2c(=S)oc3ccc(Br)cc3c2=S)cc1 |  | MIC | My 331/88 | 21 d |  | 2 µM
O=C1C2=C(OC(c3ccc(Cl)cc3)CC2)C(=O)c2ccccc21 |  | MIC | H37Rv |  |  | >100 µg/mL